Assay results as given in PMC10883919.
Construct, isoform or probe ends are uncertain for at least one entry. For part of these data: At least one verdict was read from the data and is not stated in words by the source. For part of these data: Where a protein sequence is shown, tags need not be part of it.

Assays:
[1] = biological target: P~TcrX (phosphorylated TcrX) (Mycobacterium tuberculosis H37Rv) (UniProt O69730); assay: competition with a labelled probe; conditions: recombinant protein; residues 1-234; probe letters rebuilt from the primers and the genome
[2] = biological target: P~TcrX (phosphorylated TcrX) (Mycobacterium tuberculosis H37Rv) (UniProt O69730); assay: EMSA; conditions: recombinant protein; residues 1-234; probe letters rebuilt from the primers and the genome
[3] = biological target: T1, TcrX (Mycobacterium tuberculosis H37Rv) (UniProt O69730); assay: EMSA; conditions: unphosphorylated, weaker than P~TcrX; recombinant protein; residues 1-234; probe letters rebuilt from the primers and the genome
T1 sequence (looked up): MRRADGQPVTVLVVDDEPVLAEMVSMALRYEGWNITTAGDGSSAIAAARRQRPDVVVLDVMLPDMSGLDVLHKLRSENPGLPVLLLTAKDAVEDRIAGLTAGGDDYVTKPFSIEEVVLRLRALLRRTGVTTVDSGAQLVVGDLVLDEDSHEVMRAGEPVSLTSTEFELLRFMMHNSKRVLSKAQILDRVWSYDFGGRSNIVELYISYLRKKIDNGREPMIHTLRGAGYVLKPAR

Measured: binding result

TACGACACGCTCAACCGAGATGCGGTGCTGCGTCACAGCGTCAAGTATCCGCACACGGCTGAGCAGACGCCATGCGGATCCTATGTGCGCGCTATGAAACCCGATTTG (double strand) [PtcrXY]
binds: all assays above
